{
  "sequences": {"note": "Amino acid sequences for entries named in this document (tags omitted).", "UniProt Q02294, whole entry, looked up": "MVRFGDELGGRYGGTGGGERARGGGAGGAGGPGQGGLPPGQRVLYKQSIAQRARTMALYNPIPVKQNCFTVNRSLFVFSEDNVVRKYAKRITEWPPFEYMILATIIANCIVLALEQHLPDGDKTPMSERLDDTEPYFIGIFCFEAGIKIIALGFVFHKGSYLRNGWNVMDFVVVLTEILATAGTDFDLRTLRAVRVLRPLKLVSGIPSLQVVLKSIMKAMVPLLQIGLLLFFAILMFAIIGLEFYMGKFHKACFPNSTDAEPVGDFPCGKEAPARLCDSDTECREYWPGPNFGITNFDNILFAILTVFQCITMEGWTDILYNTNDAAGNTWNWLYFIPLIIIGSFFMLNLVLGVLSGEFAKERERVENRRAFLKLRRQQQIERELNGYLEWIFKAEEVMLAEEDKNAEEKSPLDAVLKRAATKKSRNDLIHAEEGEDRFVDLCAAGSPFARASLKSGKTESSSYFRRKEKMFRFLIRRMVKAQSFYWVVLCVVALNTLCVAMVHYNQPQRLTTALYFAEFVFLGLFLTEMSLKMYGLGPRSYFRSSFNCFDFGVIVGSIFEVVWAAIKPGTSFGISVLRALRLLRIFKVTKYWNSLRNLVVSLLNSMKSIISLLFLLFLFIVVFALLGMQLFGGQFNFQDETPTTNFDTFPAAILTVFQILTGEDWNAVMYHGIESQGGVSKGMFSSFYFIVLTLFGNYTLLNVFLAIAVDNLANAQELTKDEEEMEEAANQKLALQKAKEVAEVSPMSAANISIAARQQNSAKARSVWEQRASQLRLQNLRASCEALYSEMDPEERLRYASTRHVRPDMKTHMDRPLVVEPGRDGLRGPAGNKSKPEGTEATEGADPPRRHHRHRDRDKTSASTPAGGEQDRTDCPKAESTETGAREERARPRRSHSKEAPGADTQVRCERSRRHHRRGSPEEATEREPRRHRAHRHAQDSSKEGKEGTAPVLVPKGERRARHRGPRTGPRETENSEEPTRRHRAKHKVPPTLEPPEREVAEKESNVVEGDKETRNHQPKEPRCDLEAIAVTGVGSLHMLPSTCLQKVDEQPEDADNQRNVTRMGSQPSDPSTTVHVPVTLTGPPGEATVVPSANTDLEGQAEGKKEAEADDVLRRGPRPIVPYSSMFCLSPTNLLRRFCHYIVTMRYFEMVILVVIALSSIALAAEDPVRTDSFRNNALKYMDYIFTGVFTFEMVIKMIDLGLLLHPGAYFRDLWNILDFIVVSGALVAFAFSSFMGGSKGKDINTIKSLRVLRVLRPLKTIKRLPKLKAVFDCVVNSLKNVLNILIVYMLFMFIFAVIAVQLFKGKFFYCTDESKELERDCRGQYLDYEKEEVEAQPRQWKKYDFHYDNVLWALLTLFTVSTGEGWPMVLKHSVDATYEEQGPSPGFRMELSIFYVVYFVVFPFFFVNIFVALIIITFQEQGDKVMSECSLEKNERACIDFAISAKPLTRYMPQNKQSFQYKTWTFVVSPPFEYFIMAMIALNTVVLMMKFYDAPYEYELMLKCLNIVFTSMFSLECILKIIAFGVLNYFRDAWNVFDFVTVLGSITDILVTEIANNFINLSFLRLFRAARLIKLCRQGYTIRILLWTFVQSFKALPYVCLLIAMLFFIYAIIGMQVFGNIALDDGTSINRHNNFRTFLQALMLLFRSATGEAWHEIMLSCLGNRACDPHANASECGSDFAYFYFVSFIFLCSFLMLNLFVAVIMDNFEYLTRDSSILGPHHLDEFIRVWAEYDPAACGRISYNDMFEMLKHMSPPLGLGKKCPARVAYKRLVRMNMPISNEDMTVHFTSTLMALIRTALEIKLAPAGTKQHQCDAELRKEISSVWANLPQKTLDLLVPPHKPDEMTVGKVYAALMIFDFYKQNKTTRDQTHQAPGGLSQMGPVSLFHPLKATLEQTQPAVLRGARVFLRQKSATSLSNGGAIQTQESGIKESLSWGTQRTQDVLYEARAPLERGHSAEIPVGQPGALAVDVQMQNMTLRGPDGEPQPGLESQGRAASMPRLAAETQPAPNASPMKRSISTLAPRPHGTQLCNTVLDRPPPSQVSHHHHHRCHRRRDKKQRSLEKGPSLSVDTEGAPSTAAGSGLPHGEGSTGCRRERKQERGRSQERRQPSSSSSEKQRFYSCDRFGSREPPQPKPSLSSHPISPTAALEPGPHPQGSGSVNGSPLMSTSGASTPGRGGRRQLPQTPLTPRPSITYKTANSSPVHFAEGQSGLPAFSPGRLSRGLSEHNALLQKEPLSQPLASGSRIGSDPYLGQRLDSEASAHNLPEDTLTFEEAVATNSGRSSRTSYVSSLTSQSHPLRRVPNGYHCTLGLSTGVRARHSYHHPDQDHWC"},
  "source": "patent US20090209937A1",
  "about": "(priority 2007, published 2009)",
  "origin": "cited, not measured here",
  "biological_target": "expressed recombinant rat Cav2.2 calcium channel subunits (Rattus norvegicus, UniProt Q02294)",
  "settings": "cited from earlier work",
  "data": [
    {"substance": "ω-conotoxin GVIA [ω-CTX-G]", "values": [
      {"measurement": "Kd", "value": "~100", "unit": "nM"}
    ]}
  ]
}
